What all share (settings): remark: other sources report otherwise
Assay [1] has as its target T1, SARS-CoV-2 spike receptor-binding domain (RBD) (SARS-CoV-2), P0DTC2.
For assay [2], the target named is T1, SARS-CoV-2 spike receptor-binding …. Briefly: SPR (Biacore 3000), RBD immobilised.
The target is the same in assay [3]. The source holds these as a separate data set.
Assay [4] shares this target. The source holds these as a separate data set.
For assay [5] the target is unchanged. Description: indirect ELISA, RBD coated on plate, 4PL fit. A general note: ELISA stands for enzyme-linked immunosorbent assay.
Assay [6] has as its target receptor-binding domain (RBD) of the SARS-CoV-2 spike (S) glycoprotein (SARS-CoV-2), P0DTC2.
For assay [7], the target named is T1, SARS-CoV-2 spike receptor-binding …. This is another data set of the same source.
Assay [8] shares this target. The source holds these as a separate data set.
For assay [9] the target is unchanged. This is another data set of the same source.
The target is the same in assay [10]. Briefly: indirect ELISA on coated RBD ('ELISA affinity').

Consider one molecule from patent publication US20240043505A1.

Read-outs that look alike come from different tables or passages of the source.

B1: Nb20 (VHH)
VHH: QVQLVESGGGLVQAGGSLRLSCAVSGAGAHRVGWFRRAPGKEREFVAAIGASGGMTNYLDSVKGRFTISRDNAKNTIYLQMNSLKPQDTAVYYCAARDIETAEYIYWGQGTQVTVSS
For B1, the Kd came to 0.01 nM in assay [1], 0.0104 nM in assay [2], 0.0104 nM in [4] and 0.0104 nM in assay [7]. The IC50 in [3] amounted to 0.48 nM; in [10], 0.4 nM. In addition, the koff in assay [4] and in [8] was 3.08e-05 s⁻¹ in each case. Besides, the on-rate constant (kon) in assay [4] and in assay [8] was 2.96e+06 M⁻¹ s⁻¹ each time. In addition, the ELISA affinity in [5] amounted to 0.4 nM. The Buried surface area in assay [6] stood at 718 Å^2. The molecule also yielded an EC50 (read off the curve) in assay [9] of 1 nM.

By Kd is commonly meant the equilibrium constant for the complex coming apart. The low end stands for tighter binding, the high end for weaker binding. In general, IC50 refers to the concentration that inhibits the measured activity by half. As a reminder, the koff is a measure of how fast the partners let go of each other. Read a high koff as a short-lived complex. One may read the kon as a measure of how fast the partners come together. Read a high kon as fast association. As usually defined, the EC50 (read off the curve) is the concentration needed to bring the measured effect to its halfway point.
